Assay results published in PMC4066452 (Archives of biochemistry and biophysics, 2014).

Legend:
Assay in all cases: purified protein
Conditions in all cases: pH 7.5; 25.0 °C
[1] = tested on: CC(C)(COP(=O)(O)OP(=O)(O)OC[C@H]1O[C@@H](n2cnc3c(N)ncnc32)[C@H](O)[C@@H]1OP(=O)(O)O)[C@@H](O)C(=O)NCCC(=O)NCCS
CC(=O)O = tested on: CC(=O)O
[2] = tested on: Nc1ncnc2c1ncn2[C@@H]1O[C@H](COP(=O)(O)OP(=O)(O)OP(=O)(O)O)[C@@H](O)[C@H]1O

With “MtACS (Mycobacterium tuberculosis acetyl-CoA synthetase) (Mycobacterium tuberculosis H37Rv)” the Km [1] was 125 ± 5 µM, the Km (CC(=O)O) was 55 ± 8 µM and the Km [2] was 79 ± 7 µM.
